Anti-infective test results gathered from many reports (values: NIAID ChemDB through PubChem).

Common to all: growth or infection tests; organism: Plasmodium falciparum

Rows are shuffled and stem from different studies.

{"structure": "c1ccc2cc(OCCCCCN3CCCCC3)ccc2c1", "strain or isolate": "K1", "method": "flow cytometry", "cell line": "Erythrocytes", "endpoint": "EC50", "result": "2.41 µM"}
{"structure": "Cc1ccc(N=C2SCC(O)=C2C(=O)O)cc1C", "strain or isolate": "Dd2", "endpoint": "EC50", "result": ">20 µM"}
{"structure": "CCCCN(CCCC)CC(O)COc1ccc2ccccc2c1", "strain or isolate": "K1", "method": "flow cytometry", "cell line": "Erythrocytes", "endpoint": "EC50", "result": "0.7575 µM"}
{"structure": "COc1cc(OC)c(C=C2SC(=O)N(Cc3ccc(F)cc3)C2=O)c(OC)c1", "strain or isolate": "W2", "method": "fluorescence", "mutations": "Chloroquine-resistant", "endpoint": "EC50", "result": "8.75 µM"}
{"structure": "OC(COc1ccc(OCc2ccccc2)cc1)CN1CCCCC1", "strain or isolate": "3D7", "method": "flow cytometry", "cell line": "Erythrocytes", "endpoint": "EC50", "result": ">15 µM"}
{"structure": "C/C=C1/CN2CCC34c5ccccc5N5C=C6[C@H]7C[C@@H]8N(CCC89c8ccccc8N(C=C([C@H]1C[C@H]23)[C@H]54)[C@@H]69)C/C7=C/C", "strain or isolate": "3D7", "endpoint": "EC50", "result": "1.824 µg/mL"}
{"structure": "Oc1ccc(CNNC(=S)NC2CCCCC2)cc1", "strain or isolate": "Dd2", "endpoint": "EC50", "result": ">50 µM"}
{"structure": "C=C[C@H]1CN2CC[C@H]1C[C@H]2[C@H](O)c1ccnc2ccccc12", "strain or isolate": "HB3", "endpoint": "EC50", "result": "0.018 µM"}
{"structure": "Cc1ccc(NC2=C(ON)C(=O)CS2)cc1C", "strain or isolate": "3D7", "endpoint": "EC50", "result": ">20 µM"}
{"structure": "Cc1ccc(C=C2SC(=O)N(CC(=O)N3CCN(c4ccccc4)CC3)C2=O)cc1", "strain or isolate": "W2", "method": "fluorescence", "mutations": "Chloroquine-resistant", "endpoint": "EC50", "result": ">10 µM"}
{"structure": "CC(C)c1ccc(OCCNC(=O)c2ccccc2Cl)cc1", "strain or isolate": "Dd2", "endpoint": "EC50", "result": "22 µM"}
{"structure": "COc1cc(OC)c(C=C2SC(=O)N(CC(=O)N3CCN(C)CC3)C2=O)c(OC)c1", "strain or isolate": "W2", "method": "fluorescence", "mutations": "Chloroquine-resistant", "endpoint": "EC50", "result": ">10 µM"}
{"structure": "CC(NCC(O)COc1ccccc1C(C)(C)C)c1ccccc1", "strain or isolate": "3D7", "method": "flow cytometry", "cell line": "Erythrocytes", "endpoint": "EC50", "result": "3.1 µM"}
{"structure": "O=C(CN1C(=O)SC(=Cc2cc(C(F)(F)F)ccc2C(F)(F)F)C1=O)N1CCN(c2ccccc2)CC1", "strain or isolate": "W2", "method": "fluorescence", "mutations": "Chloroquine-resistant", "endpoint": "EC50", "result": ">10 µM"}
{"structure": "O=C(CC1NCCC[C@@H]1O)Cn1cnc2c(c1=O)CCCC2", "strain or isolate": "FCR3", "method": "LDH / absorbance", "cell line": "Human A+ erythrocytes", "endpoint": "EC50", "result": "0.079 µg/mL"}
{"structure": "C[C@@H]1CC[C@H]2[C@@H](C)C(=O)O[C@@H]3OC4(C)CC[C@@H]1[C@]32OO4", "strain or isolate": "K1", "endpoint": "EC50", "result": "0.0021 µM"}
{"structure": "O=C(CN1C(=O)SC(=Cc2ccc(F)c(F)c2)C1=O)N1CCN(c2ccccc2)CC1", "strain or isolate": "W2", "method": "fluorescence", "mutations": "Chloroquine-resistant", "endpoint": "EC50", "result": ">10 µM"}
{"structure": "C[C@@H]1CC[C@H]2[C@@H](C)C(=O)O[C@@H]3OC4(C)CC[C@@H]1[C@]32OO4", "strain or isolate": "Dd2 (CM1)", "method": "SYBR Green / fluorescence", "mutations": "Multidrug-resistant", "endpoint": "EC50", "result": "0.0209 µM"}
{"structure": "CCO[C@H]1O[C@@H]2OC3(C)CC[C@H]4[C@H](C)CC[C@@H]([C@H]1C)[C@@]24OO3", "strain or isolate": "3D7", "endpoint": "EC50", "result": "0.01 µg/mL"}
{"structure": "CN1CCc2cc3c(cc2[C@@H]1[C@@H]1OC(=O)c2c1ccc1c2OCO1)OCO3", "strain or isolate": "K1CB1", "endpoint": "EC50", "result": ">20 µg/mL"}
{"structure": "C[n+]1c2ccccc2c(NC2CCNCC2)c2[nH]c3ccccc3c21.[Cl-]", "strain or isolate": "K1", "endpoint": "EC50", "result": "0.1 µM"}
{"structure": "Cc1cccc(OCCNC(=O)c2ccc(O)cc2Cl)c1", "strain or isolate": "Dd2", "endpoint": "EC50", "result": "17.8 µM"}
{"structure": "C=C1CN2CCC34c5ccccc5N5C=C([C@H]6CC7C8=C(CCN7C/C6=C/C)C6C=CC=CC6N8)[C@@H](O)[C@@H]([C@H]53)[C@H]1C[C@]24O", "strain or isolate": "W2", "endpoint": "EC90", "result": "54.23 µg/mL"}
{"structure": "CC(NCc1ccc(OCc2ccccc2)cc1)C(O)c1ccccc1", "strain or isolate": "K1", "method": "flow cytometry", "cell line": "Erythrocytes", "endpoint": "EC50", "result": "0.6032 µM"}
{"structure": "C[C@H]1[C@@H](OC(=O)CCC(=O)O)O[C@@H]2O[C@@]3(C)CC[C@H]4[C@H](C)CC[C@@H]1[C@@]24OO3", "strain or isolate": "F32", "method": "broth dilution / radiometric", "cell line": "human red blood cells", "endpoint": "EC50", "result": "0.018 µM"}
{"structure": "O=C(NCCOc1ccc2ccccc2c1)c1ccccc1O", "strain or isolate": "Dd2", "endpoint": "EC50", "result": "3 µM"}
{"structure": "COc1cc(OC)c(C=C2SC(=O)N(CC(=O)N3CCN(c4ccccc4Cl)CC3)C2=O)c(OC)c1", "strain or isolate": "W2", "method": "fluorescence", "mutations": "Chloroquine-resistant", "endpoint": "EC50", "result": "1.11 µM"}
{"structure": "O=C(CC1CCC2(CC1)OOC1(OO2)C2CC3CC(C2)CC1C3)N1CCOCC1", "strain or isolate": "3D7", "endpoint": "EC50", "result": "0.0052 µM"}
{"structure": "Cc1cccc(SCCNC(=O)c2ccccc2Cl)c1", "strain or isolate": "Dd2", "endpoint": "EC50", "result": "32 µM"}
{"structure": "O=C(CN1C(=O)SC(=Cc2cccc(F)c2)C1=O)N1CCN(c2ccccc2)CC1", "strain or isolate": "W2", "method": "fluorescence", "mutations": "Chloroquine-resistant", "endpoint": "EC50", "result": ">10 µM"}
{"structure": "Cc1cccc(OCCNC(=O)c2c(Cl)ccc3cc(C)cnc23)c1", "strain or isolate": "Dd2", "endpoint": "EC50", "result": ">50 µM"}
{"structure": "CCN(CC)CCCC(C)Nc1ccnc2cc(Cl)ccc12", "strain or isolate": "W2", "method": "broth dilution / radiometric", "cell line": "human red blood cells", "endpoint": "EC50", "result": "0.528 µM"}
{"structure": "O=C(O)c1cn(C2CC2)c2cc(N3CCNCC3)c(F)cc2c1=O", "strain or isolate": "W2", "method": "fluorescence", "endpoint": "EC50", "result": "23.1 µM"}
{"structure": "Cc1cccc(OC2CCCN(C(=O)c3ccccc3Cl)C2)c1", "strain or isolate": "Dd2", "endpoint": "EC50", "result": ">50 µM"}
{"structure": "COc1cc2c(cc1O)[C@@H]1Cc3ccc4c(c3CN1CC2)OCO4", "strain or isolate": "TM4/8.2", "endpoint": "EC50", "result": "0.9 µg/mL"}
{"structure": "CCOC(=O)C1=C(O)CSC1=Nc1ccc(Br)cc1C", "strain or isolate": "Dd2", "endpoint": "EC50", "result": ">20 µM"}
{"structure": "O=C(CC1NCCC[C@@H]1O)Cn1cnc(-c2ccccc2)cc1=O", "strain or isolate": "K1", "method": "LDH / absorbance", "cell line": "Human A+ erythrocytes", "endpoint": "EC50", "result": "0.138 µg/mL"}
{"structure": "CC(C)CN1CCN(C(=O)CC2CCC3(CC2)OOC2(OO3)C3CC4CC(C3)CC2C4)CC1", "strain or isolate": "K1", "endpoint": "EC50", "result": "0.0009 µM"}
{"structure": "COc1cc(OC)c(C=C2SC(=O)N(CC(=O)N3CCNCC3)C2=O)c(OC)c1", "strain or isolate": "W2", "method": "fluorescence", "mutations": "Chloroquine-resistant", "endpoint": "EC50", "result": "5.28 µM"}
{"structure": "CC(=O)C1C(=O)C=C(C)OC1=O.CCc1nc(N)nc(N)c1-c1ccc(Cl)cc1", "strain or isolate": "Dd2", "method": "LDH", "endpoint": "EC50", "result": "0.0089 µg/mL"}
{"structure": "COc1cc(OC)c(C=C2SC(=O)N(C)C2=O)c(OC)c1", "strain or isolate": "W2", "method": "fluorescence", "mutations": "Chloroquine-resistant", "endpoint": "EC50", "result": ">10 µM"}
{"structure": "CCN(CC)CCCC(C)Nc1ccnc2cc(Cl)ccc12", "strain or isolate": "RSA11", "endpoint": "EC50", "result": "0.278 µM"}
{"structure": "CC(C)c1ccc(C2OOC(c3ccc(C=O)cc3)OO2)cc1", "strain or isolate": "W2", "method": "LDH", "endpoint": "EC50", "result": "6.99 µM"}
{"structure": "COc1ccc(Cc2c3cc(OC)c(OC)cc3cc[n+]2C)cc1OC", "strain or isolate": "K1", "method": "flow cytometry", "cell line": "Erythrocytes", "endpoint": "EC50", "result": "2.06 µM"}
{"structure": "CN1CCC(N2CCN(C(=O)CC3CCC4(CC3)OOC3(OO4)C4CC5CC(C4)CC3C5)CC2)CC1", "strain or isolate": "3D7", "endpoint": "EC50", "result": "0.006 µM"}
{"structure": "Cc1cccc(OCCNC(=O)c2cccnc2Cl)c1", "strain or isolate": "Dd2", "endpoint": "EC50", "result": ">50 µM"}
{"structure": "Cc1cccc2c(Nc3ccc(S(N)(=O)=O)cc3)c3ccc([N+](=O)[O-])cc3nc12", "strain or isolate": "K1", "method": "flow cytometry", "cell line": "Erythrocytes", "endpoint": "EC50", "result": "0.5332 µM"}
{"structure": "CCN(CC)CCCC(C)Nc1ccnc2cc(Cl)ccc12", "strain or isolate": "HB3", "endpoint": "EC50", "result": "0.032 µg/mL"}
{"structure": "C=CC1CN2CCC1CC2[C@H](O)c1ccnc2ccc(OC)cc12", "strain or isolate": "K1", "endpoint": "EC50", "result": "0.16 µM"}
{"structure": "Cc1cccc(OCCNC(=O)c2cccc(Cl)c2)c1", "strain or isolate": "Dd2", "endpoint": "EC50", "result": "26.6 µM"}
{"structure": "C[C@@H]1O[C@@H](OC[C@H]2O[C@@H](Oc3c(-c4ccc(O)c(O)c4)oc4cc(O)cc(O)c4c3=O)[C@H](O)[C@@H](O)[C@@H]2O)[C@H](O)[C@H](O)[C@H]1O", "strain or isolate": "Clinical isolates", "endpoint": "EC50", "result": "7.1 µM"}
{"structure": "C/C=C1/CC2CCC3=C(Cc4ccccc43)C2C[C@@H]1C1=CN2c3ccccc3C34CCN5C/C(=C/O)[C@H](C[C@H]53)[C@@H]([C@@H]1O)[C@H]24", "strain or isolate": "3D7", "endpoint": "EC90", "result": "15.1 µg/mL"}
{"structure": "O=C(CC1NCCC[C@@H]1O)Cn1cnc2c(c1=O)CCCCC2", "strain or isolate": "FCR3", "method": "LDH / absorbance", "cell line": "Human A+ erythrocytes", "endpoint": "EC50", "result": "0.0411 µg/mL"}
{"structure": "C[C@H]1[C@@H](OC(=O)CCC(=O)O)O[C@@H]2O[C@@]3(C)CC[C@H]4[C@H](C)CC[C@@H]1[C@@]24OO3", "strain or isolate": "RSA11", "endpoint": "EC50", "result": "0.003 µM"}
{"structure": "CCOC(=O)c1cn(CC(F)(F)F)c2ccc3nc(-c4ccc(F)cc4)c(-c4ccc(F)cc4)nc3c2c1=O", "strain or isolate": "3D7", "method": "fluorescence", "endpoint": "EC50", "result": "3.92 µM"}
{"structure": "O=C(C[C@H]1NCCC[C@@H]1O)Cn1cnc2c(c1=O)CCC2", "strain or isolate": "FCR3", "method": "LDH / absorbance", "cell line": "Human A+ erythrocytes", "endpoint": "EC50", "result": "0.0747 µg/mL"}
{"structure": "COc1cc2c(cc1OC)CN(Cc1ccc(O)cc1)CC2", "strain or isolate": "K1CB1", "endpoint": "EC50", "result": ">20 µg/mL"}
{"structure": "CC(C)(O)[C@H](O)COc1c2occc2cc2ccc(=O)oc12", "strain or isolate": "CQ-resistant", "cell line": "RBC", "endpoint": "EC90", "result": "25.5 µg/mL"}
{"structure": "O=C(CC1NCC[C@@H]1O)Cn1cnc2ccccc2c1=O", "strain or isolate": "K1", "method": "LDH / absorbance", "cell line": "Human A+ erythrocytes", "endpoint": "EC50", "result": ">1 µg/mL"}
{"structure": "C=CCOc1ccc(CNC(C)C(O)c2ccccc2)cc1", "strain or isolate": "3D7", "method": "flow cytometry", "cell line": "Erythrocytes", "endpoint": "EC50", "result": "4.94 µM"}
{"structure": "C[C@@H]1CC[C@H]2[C@@H](C)C(=O)O[C@@H]3OC4(C)CC[C@@H]1[C@]32OO4", "strain or isolate": "RSA11", "endpoint": "EC50", "result": "0.011 µM"}

7 of the rows above, restated:

{"structure": "CC(C)(O)[C@H](O)COc1c2occc2cc2ccc(=O)oc12", "strain or isolate": "CQ-resistant", "cell line": "RBC", "endpoint": "EC90", "result": "25.5 µg/mL"}
{"structure": "C/C=C1/CC2CCC3=C(Cc4ccccc43)C2C[C@@H]1C1=CN2c3ccccc3C34CCN5C/C(=C/O)[C@H](C[C@H]53)[C@@H]([C@@H]1O)[C@H]24", "strain or isolate": "3D7", "endpoint": "EC90", "result": "15.1 µg/mL"}
{"structure": "Cc1ccc(NC2=C(ON)C(=O)CS2)cc1C", "strain or isolate": "3D7", "endpoint": "EC50", "result": ">20 µM"}
{"structure": "O=C(CC1CCC2(CC1)OOC1(OO2)C2CC3CC(C2)CC1C3)N1CCOCC1", "strain or isolate": "3D7", "endpoint": "EC50", "result": "0.0052 µM"}
{"structure": "O=C(CN1C(=O)SC(=Cc2cccc(F)c2)C1=O)N1CCN(c2ccccc2)CC1", "strain or isolate": "W2", "method": "fluorescence", "mutations": "Chloroquine-resistant", "endpoint": "EC50", "result": ">10 µM"}
{"structure": "OC(COc1ccc(OCc2ccccc2)cc1)CN1CCCCC1", "strain or isolate": "3D7", "method": "flow cytometry", "cell line": "Erythrocytes", "endpoint": "EC50", "result": ">15 µM"}
{"structure": "C=C1CN2CCC34c5ccccc5N5C=C([C@H]6CC7C8=C(CCN7C/C6=C/C)C6C=CC=CC6N8)[C@@H](O)[C@@H]([C@H]53)[C@H]1C[C@]24O", "strain or isolate": "W2", "endpoint": "EC90", "result": "54.23 µg/mL"}

ECn is the concentration giving n% inhibition of infection, replication or growth.